A mixed list of measured activities; the numbers were collected in NIAID ChemDB.

Shared fields: growth or infection tests; agent: Candida albicans

Rows are shuffled and stem from different studies.

SMILES | strain | setting | read by | read-out | result
c1ccc(-c2ccc(COC(Cn3ccnc3)c3ccccc3)cc2)cc1 | Y0109 | - | - | MIC | >128 µg/mL
C[C@@H](n1cnc2cc(S(C)(=O)=O)ccc2c1=O)[C@](O)(Cn1cncn1)c1ccc(F)cc1F | 406 strains | - | - | MIC | 0.63 µg/mL
CCCCCOc1ccc(-c2ccc(-c3ccc(C(=O)N[C@H]4CCCNC(=O)[C@@H]5C[C@H](NC(=O)OC(C)(C)C)CN5C(=O)[C@H]([C@@H](C)O)NC(=O)[C@H](CCc5ccc(O)cc5)NC(=O)[C@@H]5C[C@@H](O)CN5C(=O)[C@H]([C@@H](C)O)NC4=O)cc3)cc2)cc1 | ATCC 38247 | - | - | MIC | >100 µg/mL
Cc1ccc(C(C)C)c(O)c1 | M1 | - | - | MIC | 0.16 µg/mL
CC1CCC(OC[N+](C)(C)Cc2cc(N=Nc3ccc(Cl)cc3)ccc2O)CC1 | - | - | - | MBC | 1106 µM
CC(C)(C)c1ccc(COC(Cn2ccnc2)c2ccc(Cl)cc2Cl)cc1 | CA2 | - | - | MIC | 128 µg/mL
Fc1ccc(CO/N=C2/c3ccccc3OCC2n2cncn2)cc1 | ATCC 10231 | - | - | MIC | 64 µg/mL
COC(=O)[C@H]1[C@@H]2C[C@@H](O[C@@H]3O[C@H](C)[C@@H](O)[C@H](N)[C@@H]3O)/C=C/C=C/C=C/C=C/C=C/C=C/C=C/[C@H](C)[C@@H](O)[C@H](C)[C@H](C)OC(=O)C[C@H](O)C[C@H](O)[C@@H](O)CC[C@H](O)C[C@H](O)C[C@](O)(C[C@@H]1O)O2 | 10 isolates | pH 6 | broth dilution | MIC | 2 µg/mL
CCCCCOc1ccc(-c2ccc(-c3ccc(C(=O)N[C@H]4CCCNC(=O)[C@@H]5C[C@H](NC)CN5C(=O)[C@H]([C@@H](C)O)NC(=O)[C@H](CCc5ccc(O)cc5)NC(=O)[C@@H]5C[C@@H](O)CN5C(=O)[C@H]([C@@H](C)O)NC4=O)cc3)cc2)cc1 | ATCC 62376 | - | - | MIC | 0.2 µg/mL
CCOc1cc2c(cc1F)n([O-])c(C)c(Cl)[n+]2=O | Clinical isolate 4 | - | - | MIC | 15.6 µg/mL
Cc1ccc(C(Cn2ccnc2)OC/C=C/c2ccccc2)cc1 | CA2 | - | - | MIC | 128 µg/mL
C[C@@H](n1cnc2cc(NN)ccc2c1=O)[C@](O)(Cn1cncn1)c1ccc(F)cc1F | 406 strains | - | - | MIC | 0.31 µg/mL
Cc1c(Sc2ccccc2)[n+](=O)c2cc(C(F)(F)F)ccc2n1[O-] | Clinical isolate 23 | - | - | MIC | 15.6 µg/mL
OC(CN1CCN(c2ccc(OCc3ccncc3)cc2)CC1)(Cn1cncn1)c1ccc(F)cc1F | SC5314F50 | - | - | MIC80 | 0.25 µg/mL
CCC(C)CC(C)CCCCCCCCC(=O)N[C@H]1C[C@@H](O)[C@H](NCCN)NC(=O)[C@@H]2[C@@H](O)CCN2C(=O)[C@H]([C@H](O)CCN)NC(=O)[C@H]([C@H](O)[C@@H](O)c2ccc(O)cc2)NC(=O)[C@@H]2C[C@@H](O)CN2C(=O)[C@H]([C@@H](C)O)NC1=O | 40 isolates azole-susceptible | - | - | MIC | 0.4 µg/mL
CC(=O)OCC1C=C(c2ccc(Br)cc2)C(=O)O1 | 16 isolates fluconazole-susceptible | - | - | MIC90 | 2 µg/mL
Clc1ccc2c(c1)OCC(n1cncn1)/C2=N\OCc1ccc(Cl)c(Cl)c1 | ATCC 10231 | - | - | MFC | 64 µg/mL
CCCCCOc1ccc(-c2ccc(-c3ccc(C(=O)N[C@H]4CCCNC(=O)[C@@H]5C[C@H](N)CN5C(=O)CNC(=O)C(CCc5ccc(O)cc5)NC(=O)[C@@H]5C[C@@H](O)CN5C(=O)[C@H]([C@@H](C)O)NC4=O)cc3)cc2)cc1 | ATCC 62376 | - | - | MIC | 0.2 µg/mL
C[C@@H](c1ncncc1F)[C@](O)(Cn1cncn1)c1ccc(F)cc1F | 10 isolates | pH 7 | broth dilution | MIC | 0.03 µg/mL
CC(=O)OCC1C=C(c2ccc(Cl)c(Cl)c2)C(=O)O1 | 16 isolates fluconazole-susceptible | - | - | MIC90 | 2 µg/mL
Cc1c(S(=O)(=O)c2ccccc2)[n+](=O)c2ccccc2n1[O-] | Clinical isolate 18 | - | - | MIC | 31.25 µg/mL
Nc1[nH]c(=O)ncc1F | 10 isolates | pH 7 | broth dilution | MIC | 1 µg/mL
CCCCCN[C@H]1CCCNC(=O)[C@@H]2C[C@H](N)CN2C(=O)[C@H]([C@@H](C)O)NC(=O)[C@H](CCc2ccc(O)cc2)NC(=O)[C@@H]2C[C@@H](O)CN2C(=O)[C@H]([C@@H](C)O)NC1=O | ATCC 38247 | - | - | MIC | 0.2 µg/mL
Fc1ccccc1CO/N=C1/c2ccccc2OCC1n1cncn1 | ATCC 10231 | - | - | MFC | >64 µg/mL
Cc1cc(Br)c2ncn([C@H](C)[C@](O)(Cn3cncn3)c3ccc(F)cc3F)c(=O)c2c1 | 76 strains | - | - | MIC | 10 µg/mL
Clc1ccc(CO/N=C2/c3ccccc3OCC2n2cncn2)c(Cl)c1 | ATCC 10231 | - | - | MIC | 64 µg/mL
CCCCCOc1ccc(-c2ccc(-c3ccc(C(=O)N[C@H]4CCCNC(=O)[C@@H]5C[C@H](CN)CN5C(=O)[C@H]([C@@H](C)O)NC(=O)[C@H](CCc5ccc(O)cc5)NC(=O)[C@@H]5C[C@@H](O)CN5C(=O)[C@H]([C@@H](C)O)NC4=O)cc3)cc2)cc1 | ATCC 62376 | - | - | MIC | 0.78 µg/mL
C=CCc1ccc(OC)c(OC)c1 | 2434 | - | turbidity | MIC90 | 345 µg/mL
CCC(C)CC(C)CCCCCCCCC(=O)N[C@H]1C[C@@H](O)[C@H](NCCN)NC(=O)[C@@H]2[C@@H](O)CCN2C(=O)[C@H]([C@H](O)CCN)NC(=O)[C@H]([C@H](O)[C@@H](O)c2ccc(O)cc2)NC(=O)[C@@H]2C[C@@H](O)CN2C(=O)[C@H]([C@@H](C)O)NC1=O | 10 isolates | pH 7 | broth dilution | MIC | 0.06 µg/mL
CCCCCOc1ccc(-c2ccc(-c3ccc(C(=O)N[C@H]4CCCNC(=O)[C@@H]5CCCCN5C(=O)[C@H]([C@@H](C)O)NC(=O)[C@H](CCc5ccc(O)cc5)NC(=O)[C@@H]5C[C@@H](O)CN5C(=O)[C@H]([C@@H](C)O)NC4=O)cc3)cc2)cc1 | ATCC 62376 | - | - | MIC | 6.25 µg/mL
CC(C)(C)c1ccc(COC(Cn2ccnc2)c2ccc(Cl)cc2)cc1 | CA7 | - | - | MIC | 128 µg/mL
CCC(C)n1ncn(-c2ccc(N3CCN(c4ccc(OC[C@H]5CO[C@](Cn6cncn6)(c6ccc(Cl)cc6Cl)O5)cc4)CC3)cc2)c1=O | 40 isolates azole-susceptible | - | - | MIC90 | 0.1 µg/mL
Nc1[nH]c(=O)ncc1F | ATCC 24433 | - | broth dilution | MIC | 4 µg/mL
C[C@@H](n1cnc2cc(/C(N)=N/S(N)(=O)=O)ccc2c1=O)[C@](O)(Cn1cncn1)c1ccc(F)cc1F | 406 strains | - | - | MIC | 10 µg/mL
O[C@](Cn1cncn1)(Cn1cnc(/C=C/c2ccc(OCC(F)(F)C(F)F)cc2)n1)c1ccc(F)cc1F | Isolate 02-22 | - | - | MIC | 4 µg/mL
N=C(N)c1ccc2nc(-c3ccc(-c4nc5ccc(C(=N)N)cc5[nH]4)[nH]3)[nH]c2c1 | Isolate 17 (strain 12-99) | - | - | MFC | 0.78 µg/mL
Clc1ccc(C(Cn2ccnc2)OCc2ccc(-c3ccccc3)cc2)c(Cl)c1 | 3M | - | - | MIC | 128 µg/mL
Cc1ccc(N=Nc2ccc(O)c(C[N+](C)(C)COC3CCCC3)c2)cc1 | - | - | - | MBC | 619 µM
C[C@@H](NC(=O)c1ccc(Cl)cc1N)[C@](O)(Cn1cncn1)c1ccc(F)cc1F | 76 strains | - | - | MIC | >80 µg/mL
c1ccc(C(Cn2ccnc2)OCc2cccc3ccccc23)cc1 | PR1 | - | - | MIC | 128 µg/mL
CC1=CC(=O)C(C(=O)/C=C/c2ccccc2)=C1O | ATCC 90028 | - | - | MIC | 50 µg/mL
CCCOC[N+](C)(C)Cc1cc(N=Nc2ccc(C)cc2)ccc1O | - | - | - | MIC | 331 µM
C(=C\c1ccccc1)/COC(Cn1ccnc1)c1ccccc1 | CA12 | - | - | MIC | 128 µg/mL
Cc1c(S(=O)(=O)c2ccccc2)[n+](=O)c2cc(Cl)ccc2n1[O-] | Clinical isolate 11 | - | - | MIC | 31.25 µg/mL
C[C@@H](n1cnc2cc(N3CCOC3=O)ccc2c1=O)[C@](O)(Cn1cncn1)c1ccc(F)cc1F | 406 strains | - | - | MIC | 0.31 µg/mL
CC(C)(O)c1cn(-c2ccc(Cl)cc2)nn1 | URM 4125 | - | broth dilution | MIC | 256 µg/mL
C[C@@H](n1cnc2cc(NCc3ccccc3)ccc2c1=O)[C@](O)(Cn1cncn1)c1ccc(F)cc1F | 60 strains | - | - | MIC | ≤0.03 µg/mL
CCOC[N+](C)(C)Cc1cc(N=Nc2ccc(C)cc2)ccc1O | - | - | - | MBC | 1376 µM
C[C@@H](n1ncn(-c2ccc(OCC(F)(F)C(F)F)cc2)c1=O)[C@](O)(Cn1cncn1)c1ccc(F)cc1F | 60 strains | - | - | MIC | 0.07 µg/mL
COc1cc(O)c2c(c1)C(=O)c1c(cc3c(c1O)-c1c(cc(C)c(C(=O)NC(CO)C(=O)O)c1O)[C@H](OC1OC(C)C(O)C(OC4OCC(O)C(O)C4O)C1O)C3O)C2=O | SC14061 (azole-resistant) | - | - | MIC | 4 µg/mL
C[C@@H](n1cnc2c(Cl)cccc2c1=O)[C@](O)(Cn1cncn1)c1ccc(F)cc1F | 406 strains | - | - | MIC | 0.07 µg/mL
Clc1ccc(C(Cn2ccnc2)OC/C=C/c2ccccc2)c(Cl)c1 | 3M | - | - | MIC | 4 µg/mL

The first 4 rows once more:

SMILES	strain	setting	read by	read-out	result
c1ccc(-c2ccc(COC(Cn3ccnc3)c3ccccc3)cc2)cc1	Y0109	-	-	MIC	>128 µg/mL
C[C@@H](n1cnc2cc(S(C)(=O)=O)ccc2c1=O)[C@](O)(Cn1cncn1)c1ccc(F)cc1F	406 strains	-	-	MIC	0.63 µg/mL
CCCCCOc1ccc(-c2ccc(-c3ccc(C(=O)N[C@H]4CCCNC(=O)[C@@H]5C[C@H](NC(=O)OC(C)(C)C)CN5C(=O)[C@H]([C@@H](C)O)NC(=O)[C@H](CCc5ccc(O)cc5)NC(=O)[C@@H]5C[C@@H](O)CN5C(=O)[C@H]([C@@H](C)O)NC4=O)cc3)cc2)cc1	ATCC 38247	-	-	MIC	>100 µg/mL
Cc1ccc(C(C)C)c(O)c1	M1	-	-	MIC	0.16 µg/mL

MIC50, MIC90 and the like: level of inhibition, or share of isolates inhibited. Blank or dashed fields: not listed here.